The text below walks through data of patent publication US9422335B2, “Modified toll-like receptor 2 (TLR2) ligands as inhibitors of neutrophil recruitment” (priority 2011, dated 2016).

The test system of this data set is neutrophils (GFPhi cells). In words: Neutrophil whole blood and lymph node counts. In kind it is in vivo, LysM-eGFP mice.

In the case of Pam3CSK4, the “neutrophil numbers in blood or lymph nodes” value (local administration, 4.5 hr) is “does not cause any changes in neutrophil numbers”. For the same substance, where the note is “systemic administration, 16 hr”, the circulating blood neutrophils result is “increased numbers of circulating blood neutrophils” and the “neutrophils in the lymph nodes” value was “increased, albeit low, numbers of neutrophils in the lymph nodes”.
